The values that follow come from patent US7528274B2, “Acylthiols and component thiol compositions as anti-HIV and anti-retroviral agents” (The United States of America as represented by the …, priority 2001, dated 2009).

The experiment deals with HIV-1 144-44 (mutation L10I/M46I/I54V/L63P/A71V/V82A/L90M). The experiment is described as follows: XTT assay against drug resistant mutant HIV-1 144-44 in PBMCs. It counts as cell-based. The settings on record: ratio of EC50 between the two strains of Table 2. The text has this: One exemplary means to determine antiviral activity is with CEM-SS cells and virus (e.g., HIV-1RF) (MOI=0.01) using the XTT {2,3-bis[2-methoxy-4-nitro-5-sulfophenyl]-5- -[(phenylamino)carbonyl]-2H-tetrazolium hydroxide} cytoprotection assay, as described by Rice (1993) Proc. Natl. Acad. Sci. USA 90: 9721-9724, and Rice (1997) Antimicrob. Agents & Chemother. […] Briefly, cells are infected with HIV-1RF (or other virus to be tested) in the presence of various dilutions of test compounds and controls. The cultures are incubated for seven days. […] The cell death is measured by XTT dye reduction. XTT is a soluble tetrazolium dye that measures mitochondrial energy output, similar to MTT. […] Individual assays are done in duplicate using a sister plate method. […] Compound numbers therein refer to the numbers used in FIG. 1.
For orientation: Formazan colour is commonly taken as a measure of viable cells.

Regarding `Cc1cn([C@H]2C[C@H](N=[N+]=[N-])[C@@H](CO)O2)c(=O)[nH]c1=O` [AZT, 3′-azido-2′, 3′-dideoxythymidine, reference compound], the “Fold less sensitive, first strain (HIV-1 144-44) versus second strain (HIV-1 1026040)” value was “approximately 200 fold”.
